The values that follow come from patent publication US20230181681A1, “PEPTIDE FOR SUPPRESSING CORONAVIRUS AND USE THEREOF” (priority 2020, published 2023).

This test deals with T1, HCoV-OC43 N protein (HCoV-OC43), P33469.
T1 chain: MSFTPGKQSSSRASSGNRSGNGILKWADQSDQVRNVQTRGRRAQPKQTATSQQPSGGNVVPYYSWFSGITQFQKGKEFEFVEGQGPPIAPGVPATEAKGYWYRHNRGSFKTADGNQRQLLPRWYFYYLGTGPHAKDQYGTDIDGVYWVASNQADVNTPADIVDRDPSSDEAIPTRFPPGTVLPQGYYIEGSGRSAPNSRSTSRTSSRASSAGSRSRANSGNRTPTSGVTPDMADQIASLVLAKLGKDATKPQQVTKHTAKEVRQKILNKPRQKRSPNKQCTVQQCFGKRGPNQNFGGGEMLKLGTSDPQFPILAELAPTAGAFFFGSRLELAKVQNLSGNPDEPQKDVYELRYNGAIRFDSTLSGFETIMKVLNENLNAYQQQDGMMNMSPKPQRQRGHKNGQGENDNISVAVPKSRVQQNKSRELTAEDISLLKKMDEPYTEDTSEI
The experiment in a line: cell-based or functional assay.

B1: R-Spike CD-OC43 (peptide)
peptide: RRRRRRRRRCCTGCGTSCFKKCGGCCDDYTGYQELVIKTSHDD
modifications: not checked
The molecule B1 registered an HCoV-OC43 production (plaque formation assay, 2 uM peptide) of 20%.
